Results of unrelated studies side by side (data: NIAID ChemDB).

All rows: whole-cell or culture tests; organism: Mycobacterium avium; measure: MIC

Conditions beyond the fields shown may differ between rows.

smiles,strain or isolate,setting,result
O=[N+]([O-])c1cccc(CSc2ncn[nH]2)c1,MY330/88,,1000 µM
CCOc1ccccc1NC(=O)OCCN1CCOCC1,MY330/88,,1000 µM
S=c1oc2ccc(Br)cc2c(=S)n1-c1ccc(Cl)c(Cl)c1,MY330/88,14 d,32 µM
CCOc1ccccc1NC(=O)OCC[NH+]1CCCC1,MY330/88,,1000 µM
COc1ccc2c(=O)n(-c3ccccc3)c(=O)oc2c1,CNCTC MY330/88,,125 µM
Brc1cccc(CSc2ncn[nH]2)c1,MY330/88,,250 µM
COc1ccc(NC(=O)OCCN(C)C)cc1,MY330/88,,>1000 µM
O=c1oc2ccc(Br)cc2c(=O)n1-c1ccccc1,CNCTC MY330/88,,62 µM
FC(F)(F)c1cccc(CSc2ncn[nH]2)c1,MY330/88,,500 µM
CCCCCCCCCOc1ccccc1NC(=O)OCC[NH+]1CCCC1,MY330/88,,16 µM
O=c1oc2ccc(Br)cc2c(=O)n1-c1cccc([N+](=O)[O-])c1,CNCTC MY330/88,,31 µM
Cc1ccc2oc(=S)n(-c3ccccc3)c(=S)c2c1,MY330/88,14 d,4 µM
Cc1ccc2c(=O)n(-c3ccc(N(C)C)cc3)c(=O)oc2c1,CNCTC MY330/88,,62 µM
Fc1ccc(-n2c(=S)oc3ccc(Br)cc3c2=S)cc1,MY330/88,21 d,16 µM
O=c1oc2ccc(F)cc2c(=O)n1-c1cccc([N+](=O)[O-])c1,CNCTC MY330/88,,31 µM
Cc1ccc2oc(=S)n(-c3ccc(F)cc3)c(=S)c2c1,MY330/88,14 d,4 µM
O=[N+]([O-])c1ccc(CSc2ncn[nH]2)c([N+](=O)[O-])c1,MY330/88,,500 µM
Fc1ccc2oc(=S)n(-c3ccc(Br)cc3)c(=S)c2c1,MY330/88,14 d,16 µM
O=c1oc2ccccc2c(=O)n1-c1cccc([N+](=O)[O-])c1,CNCTC MY330/88,,16 µM
O=c1oc2ccc(Br)cc2c(=S)n1-c1ccc(C(F)(F)F)cc1,MY330/88,21 d,62.5 µM
Cc1ccc2c(=O)n(-c3ccc(C#N)cc3)c(=O)oc2c1,CNCTC MY330/88,,16 µM
O=c1oc2ccc(Br)cc2c(=S)n1-c1ccccc1,MY330/88,21 d,16 µM
Clc1ccc2c(c1)nc1cc(Nc3ccccc3)c(=NC3CCCCC3)cc-1n2-c1ccccc1,6194,,2 µg/mL

3 of the rows above, restated:

smiles,strain or isolate,setting,result
Cc1ccc2c(=O)n(-c3ccc(C#N)cc3)c(=O)oc2c1,CNCTC MY330/88,,16 µM
CCOc1ccccc1NC(=O)OCCN1CCOCC1,MY330/88,,1000 µM
Cc1ccc2oc(=S)n(-c3ccc(F)cc3)c(=S)c2c1,MY330/88,14 d,4 µM

An empty or dashed field is not shown.